Measured values from several laboratories, pooled; numbers as filed in NIAID ChemDB.

Common to all: toxicity to cultured cells; cell line: C8166; read-out: CC50

Lines come from different laboratories, so protocols vary. CCn is the concentration with n% toxicity to the cells.

compound | value
CC[C@@H](C)[C@H](NC(=O)[C@@H]1CCCN1[P@](=O)(OC)[C@@H](Cc1ccccc1)NC(=O)[C@H](CC(N)=O)NC(=O)OC(C)(C)C)C(=O)NCC(C)C | 100 µM
CCCO[C@H]1C[C@H](n2cc(C)c(=O)[nH]c2=O)O[C@@H]1COP(=O)(OC[C@H]1O[C@@H](n2cc(C)c(=O)[nH]c2=O)C[C@@H]1OCCC)Oc1ccccc1 | 500 µM
CCCOP(=O)(OCCC)OC[C@H]1O[C@@H](n2cc(C)c(=O)[nH]c2=O)C[C@@H]1OS(C)(=O)=O | >100 µM
C=C[C@]1(C)[C@@H](O)CC2=C(CCC3C(C)(C)C(=O)CC[C@]23C)[C@@H]1O | >629 µM
Cc1cn([C@H]2C[C@H](N=[N+]=[N-])[C@@H](COP(=O)(N[C@@H](C)C(=O)OC(C)(C)C)OCC(Cl)(Cl)Cl)O2)c(=O)[nH]c1=O | >100 µM
CC(=O)OC[C@H]1O[C@@H](n2cc(C)c(Oc3c(F)c(F)c(F)c(F)c3F)nc2=O)C[C@@H]1OC(C)=O | 80 µM
CO[C@H]1C[C@H](n2cc(C)c(=O)[nH]c2=O)O[C@@H]1CO | 500 µM
COC(=O)CNP(=O)(NCC(=O)OC)OC[C@H]1O[C@@H](n2cc(C)c(=O)[nH]c2=O)C[C@@H]1N=[N+]=[N-] | >100 µM
CCCCCCCC/C=C\CCCCCCCCOP(=O)([O-])OCC[NH2+]C | >100 µM
CCCCCCOP(=O)(N[C@H](C(=O)OC)C(C)C)OC[C@H]1O[C@@H](n2cc(C)c(=O)[nH]c2=O)C[C@@H]1N=[N+]=[N-] | >100 µM
CSCO[C@]1(C)COC(C)(CC(=O)OC[C@@H]2C=C[C@H](n3cnc4c(N)ncnc43)O2)C1 | 400 µM
CCN1c2ncc(CCc3ccccc3)cc2C(=O)N(C)c2ccc(Cl)nc21 | >60 µM
CCC(C)[C@H](NC(=O)[C@@H]1CCCN1[P@](=O)(OC)[C@H](Cc1ccccc1)NC(=O)[C@H](CC(N)=O)NC(=O)OC(C)(C)C)C(=O)NCC(C)C | >100 µM
CCCCOP(=O)(NC(C(=O)OC)C(C)C)OC[C@H]1O[C@@H](n2cc(C)c(=O)[nH]c2=O)C[C@@H]1O | >100 µM
Cc1ccc(C)c(C(C)S(=O)(=O)c2c(C)ccc[n+]2[O-])c1 | 1.7 µg/mL
CC(=O)OC[C@H]1O[C@@H](n2cc(C)c(Oc3c(F)c(F)c(F)c(F)c3F)nc2=O)C[C@@H]1N=[N+]=[N-] | 80 µM
Nc1ccn([C@@H]2O[C@H](CO)C[C@@H]2F)c(=O)n1 | >100 µM
Cc1ccc(C)c(CSc2c(Cl)ccc[n+]2[O-])c1 | 6.2 µg/mL
C=C(C)[C@@H]1CC[C@]2(C(=O)NCCCCCCCC(=O)N[C@@H](CC(C)C)[C@@H](O)CC(=O)O)CC[C@]3(C)[C@H](CC[C@@H]4[C@@]5(C)CC[C@H](O)C(C)(C)[C@@H]5CC[C@]43C)[C@@H]12 | >2.7 µM
Cc1ccc(C(C)S(=O)(=O)c2c(C)ccc[n+]2[O-])c(C)c1 | 6.9 µg/mL
CCOP(=O)(OCC)OC[C@H]1O[C@@H](n2cc(C)c(=O)[nH]c2=O)C[C@@H]1OC(C)=O | >100 µM
CNc1cc(Cl)nc2c1ncn2[C@H]1CC[C@@H](CO)O1 | 800 µM
Cc1cn([C@H]2C[C@H](N=[N+]=[N-])[C@@H](COP(=O)(N[C@@H](C)C(=O)OC3CCCCC3)Oc3ccccc3)O2)c(=O)[nH]c1=O | >100 µM
CC(=O)O[C@@H]1[C@@H](O)[C@H](COC(=O)/C=C/c2ccc(O)cc2)OC(Oc2ccc(C(=O)/C=C/c3ccc(O)c(O)c3)c(O)c2O)[C@H]1O | 100 µM
OC[C@@H]1CC[C@H](n2cnc3c(NC4CCCCCC4)cc(Cl)nc32)O1 | 9 µM
CC[C@H](C)[C@H](NC(=O)CNP(=O)(OC)C(Cc1ccccc1)NC(=O)OCc1ccccc1)C(=O)NCC(C)C | >30 µM
COC(=O)C[C@H](NP(=O)(N[C@@H](CC(=O)OC)C(=O)OC)OC[C@H]1O[C@@H](n2cc(C)c(=O)[nH]c2=O)C[C@@H]1N=[N+]=[N-])C(=O)OC | >100 µM
CC[C@H](C)[C@H](NC(=O)[C@H](Cc1ccccc1)NP(=O)(OC)C(N)Cc1ccccc1)C(=O)NCC(C)C | 30 µM
O=c1nc(Oc2c(F)c(F)c(F)c(F)c2F)ccn1[C@H]1C[C@H](O)[C@@H](CO)O1 | >1000 µM
Nc1nc(=O)n([C@H]2CC[C@@H](CO)O2)cc1F | >2.2 µM
CCO[C@H]1C[C@H](n2cc(C)c(=O)[nH]c2=O)O[C@@H]1COP(=O)(OCC(Cl)Cl)OC[C@H]1O[C@@H](n2cc(C)c(=O)[nH]c2=O)C[C@@H]1OCC | >1000 µM
C[C@H](Cn1cnc2c(N)ncnc21)OCP(=O)(O)O | >14.3 µg/mL
CCOP(=O)(NCC(=O)OC)OC[C@H]1O[C@@H](n2cc(C)c(=O)[nH]c2=O)C[C@@H]1N=[N+]=[N-] | >100 µM
COP(=O)(N[C@@H](Cc1ccccc1)C(=O)NCC(C)C)C(Cc1ccccc1)NC(=O)OCc1ccccc1 | 40 µM
Nc1nc(NC2CC2)c2ncn([C@H]3C=C[C@@H](CO)C3)c2n1 | >30 µM
CCCOP(=O)(OCCC)OC[C@H]1O[C@@H](n2cc(C)c(=O)[nH]c2=O)C[C@@H]1N=[N+]=[N-] | >100 µM
O=C1N[C@H](Cc2ccccc2)C(=O)NC1Cc1c[nH]c2c([C@]34C[C@H]5C(=O)N[C@H](Cc6ccccc6)C(=O)N5[C@H]3Nc3ccccc34)cccc12 | >100 µM
CCCOP(=O)(OC[C@H]1O[C@@H](n2cc(C)c(=O)[nH]c2=O)C[C@@H]1N=[N+]=[N-])OC(C)C(=O)OC | >100 µM
Cn1cc(C=O)c(=O)n(C)c1=O | 750 µM
CCOP(=O)(N[C@@H](Cc1ccccc1)C(=O)OC)OC[C@H]1O[C@@H](n2cc(C)c(=O)[nH]c2=O)C[C@@H]1N=[N+]=[N-] | >100 µM
CCCOP(=O)(OCCC)OC[C@H]1O[C@@H](n2cc(C)c(=O)[nH]c2=O)C[C@@H]1O | >100 µM
CCOP(=O)(NCCC(=O)OC)OC[C@H]1O[C@@H](n2cc(C)c(=O)[nH]c2=O)C[C@@H]1N=[N+]=[N-] | >100 µM
COC(=O)[C@@H](NP(=O)(N[C@H](C(=O)OC)C(C)C)OC[C@H]1O[C@@H](n2cc(C)c(=O)[nH]c2=O)C[C@@H]1N=[N+]=[N-])C(C)C | >100 µM
Cc1cn([C@H]2C=C[C@@H](CNC(=O)CC3(C)C[C@@](C)(O)CO3)O2)c(=O)[nH]c1=O | >500 µM
COc1ccc(C)cc1CS(=O)(=O)c1cccc[n+]1[O-] | 59 µg/mL
O=C(O)c1cn(-c2ccccc2)c2ccc(Cc3cccc(Cl)c3F)c(O)c2c1=O | 0.39 µM
O=c1nc(-n2cncn2)ccn1[C@H]1C[C@H](O)[C@@H](CO)O1 | >1000 µM
Cc1ccc(C)c(C(Cl)S(=O)(=O)c2cc(C)cc[n+]2[O-])c1 | 1.4 µg/mL
C=Cc1c(C)ccc2c1CCC1C(C)(C)[C@@H](O)CC[C@]21C | 280 µM
CO[C@H]1C[C@H](n2cc(C)c(=O)[nH]c2=O)O[C@@H]1COP(=O)(OC[C@H]1O[C@@H](n2cc(C)c(=O)[nH]c2=O)C[C@@H]1OC)Oc1ccccc1 | >500 µM
COC(=O)[C@H](C)NP(=O)(N[C@@H](C)C(=O)OC)OC[C@H]1O[C@@H](n2cc(C)c(=O)[nH]c2=O)C[C@@H]1N=[N+]=[N-] | >100 µM
CCN1c2ncc(CCc3ccncc3)cc2C(=O)N(C)c2cccnc21 | >60 µM
CO[C@H]1C[C@H](n2cc(C)c(=O)[nH]c2=O)O[C@@H]1COP(=O)(OCC(Cl)Cl)OC[C@H]1O[C@@H](n2cc(C)c(=O)[nH]c2=O)C[C@@H]1OC | 1000 µM
Cc1cn([C@H]2C[C@H](N=[N+]=[N-])[C@@H](COP(=O)(N[C@@H](C)C(=O)OCc3ccccc3)OCC(Cl)(Cl)Cl)O2)c(=O)[nH]c1=O | >100 µM
Nc1nc(=O)n([C@@H]2CC[C@H](CO)O2)cc1F | >2.18 µM
CC[C@H](C)[C@H](NC(=O)[C@@H]1CCCN1P(=O)(OC)C(CC1CCCCC1)NC(=O)[C@@H](CC(N)=O)NC(=O)c1ccc2ccccc2n1)C(=O)NCC(C)C | 20 µM
CCCNP(=O)(OCC)OC[C@H]1O[C@@H](n2cc(C)c(=O)[nH]c2=O)C[C@@H]1N=[N+]=[N-] | >100 µM
OC[C@@H]1CC[C@H](n2cnc3c(NC4CC4)cc(Cl)nc32)O1 | 400 µM
CCn1cc(C(=O)O)c(=O)c2cc(F)c(N3CCN(c4ccccc4OC)CC3)c(OC(F)F)c21 | 2.6 µM
O=c1ccn([C@@H]2O[C@H](CO)[C@@H](F)[C@@H]2F)c(=O)[nH]1 | >100 µM
CN1CCN(c2c(F)cc3c(=O)c(C(=O)O)cn4c3c2SCC4)CC1 | 500 µM
CCOP(=O)(NCC(=O)OC)OC[C@H]1O[C@@H](n2cc(C)c(=O)[nH]c2=O)C[C@@H]1N=[N+]=[N-] | >100 µM
CCCCOP(=O)(N[C@H](C(=O)OC)C(C)C)OC[C@H]1O[C@@H](n2cc(C)c(=O)[nH]c2=O)C[C@@H]1N=[N+]=[N-] | >100 µM
COC(OC)c1cc(=O)n(C)c(=O)n1C | 1400 µM
CCCOP(=O)(OCC(=O)OCC)OC[C@H]1O[C@@H](n2cc(C)c(=O)[nH]c2=O)C[C@@H]1N=[N+]=[N-] | >100 µM

Again, the opening 9 rows:

compound	value
CC[C@@H](C)[C@H](NC(=O)[C@@H]1CCCN1[P@](=O)(OC)[C@@H](Cc1ccccc1)NC(=O)[C@H](CC(N)=O)NC(=O)OC(C)(C)C)C(=O)NCC(C)C	100 µM
CCCO[C@H]1C[C@H](n2cc(C)c(=O)[nH]c2=O)O[C@@H]1COP(=O)(OC[C@H]1O[C@@H](n2cc(C)c(=O)[nH]c2=O)C[C@@H]1OCCC)Oc1ccccc1	500 µM
CCCOP(=O)(OCCC)OC[C@H]1O[C@@H](n2cc(C)c(=O)[nH]c2=O)C[C@@H]1OS(C)(=O)=O	>100 µM
C=C[C@]1(C)[C@@H](O)CC2=C(CCC3C(C)(C)C(=O)CC[C@]23C)[C@@H]1O	>629 µM
Cc1cn([C@H]2C[C@H](N=[N+]=[N-])[C@@H](COP(=O)(N[C@@H](C)C(=O)OC(C)(C)C)OCC(Cl)(Cl)Cl)O2)c(=O)[nH]c1=O	>100 µM
CC(=O)OC[C@H]1O[C@@H](n2cc(C)c(Oc3c(F)c(F)c(F)c(F)c3F)nc2=O)C[C@@H]1OC(C)=O	80 µM
CO[C@H]1C[C@H](n2cc(C)c(=O)[nH]c2=O)O[C@@H]1CO	500 µM
COC(=O)CNP(=O)(NCC(=O)OC)OC[C@H]1O[C@@H](n2cc(C)c(=O)[nH]c2=O)C[C@@H]1N=[N+]=[N-]	>100 µM
CCCCCCCC/C=C\CCCCCCCCOP(=O)([O-])OCC[NH2+]C	>100 µM